The values below come from ChEMBL document CHEMBL1148371, “Sulfonyl-containing aldophosphamide analogues as novel anticancer prodrugs targeted against cyclophosphamide-resistant tumor cell lines” (J Med Chem, 2004).

pIC50: −log10 of the molar value.

For orientation: pIC50 means the negative decadic logarithm of the IC50, by convention in mol/L.

The test system of the first data set is V79. Briefly: In vitro cytotoxicity against V-79 chinese hamster lung fibroblasts (3 hr drug exposure time) by clonogenic assay.
For `CC(CS(C)(=O)=O)OP(N)(=O)N(CCCl)CCCl` (stereo not drawn), the pIC50 is 4.16. For `NP(=O)(O)N(CCCl)CCCl`, the negative logarithm of the IC50 (pIC50) was 4.11. As for `CS(=O)(=O)CCOP(N)(=O)N(CCCl)CCCl` (stereo not drawn), the pIC50 was 4.25. Same read-out and setting: under `O=P1(N(CCCl)CCCl)NC(O)CCO1` (stereo not drawn) stands 5.48; under `CSCCOP(N)(=O)N(CCCl)CCCl` (stereo not drawn), 4.16; under `CSCC(C)OP(N)(=O)N(CCCl)CCCl` (stereo not drawn), 4.16.

`O=P(O)(N(CCCl)CCCl)N(CCCl)CCCl` gave a negative-log IC50 (pIC50) of 4.37.

Test system in the next data set: not listed separately
Put plainly: Half life period in phosphate buffer (0.1 M).
Turning to `NP(=O)(O)N(CCCl)CCCl`, the T1/2 is 18 min.
